From US6063612A, “Antiviral reagents based on RNA-binding proteins” (priority 1991, dated 2000)

Experiments:
TAT24C-phen (HIV-1) = TAT24C-phen (HIV-1) (UniProt P69698); test: EMSA; conditions: 200 ng, synthetic protein, label: 32P
TAT24C (HIV-1) = TAT24C (HIV-1) (UniProt P69698); test: EMSA; conditions: 200 ng peptide, 70 mM NaCl, synthetic protein, label: 32P

GGUCUCUCUGGUUAGACCAGAUCUGAGCCUGGGAGCUCUCUGGCUAACUAGAGAACCC [HIV-1 TAR]
binding result (TAT24C-phen (HIV-1); shift virtually identical to unmodified peptide): binds
binding result (TAT24C (HIV-1); 0.2 mM EDTA, 10 mM Tris pH 7.5, 25 C): binds

GCAGAUCUGAGCCUGGGAGCUCUCUGC [deltaTAR]
binding result (TAT24C-phen (HIV-1); 70 mM NaCl, 25 C, variant of HIV-1 TAR): binds

GGGAGGCUGGCAGAUUGAGCCCUGGGAGGUUCUCUCCAGCCUAGCAGGUAGAGCCUGGGUGUUCCCUGCUAGCUCCC [HIV-2 TAR]
binding result (TAT24C-phen (HIV-1); 70 mM NaCl, 25 C): binds
binding result (TAT24C (HIV-1); 25 C): binds
